Results of unrelated studies side by side (data: NIAID ChemDB).

Shared fields: tests in culture; organism: Mycobacterium tuberculosis

MIC50, MIC90 and the like: level of inhibition, or share of isolates inhibited. Neighbouring rows are from separate reports. Blank or dashed fields: not listed here. ECn is the concentration giving n% inhibition of infection, replication or growth. MIC bound comes from a single tested concentration. Inhibition is in % at the dose shown (toxicity tests: loss of growth or viability).

SMILES	mutations	dose	strain	method	read-out	cell line	value
N=c1cc2c(cn1-c1cccc(C(=O)O)c1)C(=O)c1ccccc1C2=O	Lux		H37Rv	luminescence	MIC		38.11 µM
CCCCc1ncc(C(N)=S)nc1Sc1ccccc1		12.5 µg/mL	H37Rv		inhibition		91%
NNC(=O)c1nnn(Cc2ccccc2)c1N		12.5 µg/mL	H37Rv	BACTEC	inhibition		12%
CN1CCN(CCCN2c3ccccc3Sc3ccc(C(F)(F)F)cc32)CC1	gfp		H37Rv-GFP	fluorescence	MIC		6 µg/mL
COC(=O)c1c(C(=O)OC)c2ccc3c4ncccc4ccc3n2c1C(=O)c1ccc([N+](=O)[O-])cc1			H37Rv	reporter gene / fluorescence	EC90		>100 µM
O=C(NC1CCCCCCC1)c1cn2ccc(Cl)cc2n1			H37Rv	resazurin	MIC90		>209 µM
CCOC(=O)c1cccc(N2Cc3c(c(OC)c4ccccc4c3OC)CC2=N)c1	Lux		H37Rv	luminescence	MIC		23.41 µM
CCCCc1ccc(Nc2c[nH]c(=O)[nH]c2=O)cc1			H37Rv	turbidity	MIC99		10 µg/mL
COc1cc2c(cc1O)c[n+](C)c1c3cc4c(cc3ccc21)OCO4		12.5 µg/mL	H37Rv	BACTEC	inhibition		87%
Cc1ccc(C(Cn2ccnc2)OCc2ccc(-c3ccccc3)cc2)cc1			CIP103471		MIC		2 µg/mL
O=c1oc2c([N+](=O)[O-])cccc2cc1-c1cn2ccccc2n1			H37Rv	BACTEC	MIC		>6.25 µg/mL
Cc1cc(=O)c(C#N)c2c(C#N)c(N)[nH]n12		6.25 µg/mL	H37Rv	resazurin	inhibition		10%
CCCCn1c(C)c2c(OCCO)nn(C)c(=O)c2c1C		12.5 µg/mL	H37Rv		inhibition		26%
CCOP(=O)(O)C(Nc1ccc(N=Nc2ccccc2)cc1)c1cccc(C(Nc2ccc(N=Nc3ccccc3)cc2)P(=O)(O)OCC)c1		6.25 µg/mL	H37Rv	resazurin	inhibition		-10%
COC(=O)/C1=C/c2c([nH]c3ccc(Br)cc23)/C(C(=O)OC)=C\c2c1[nH]c1ccc(Br)cc21			H37Rv	resazurin / absorbance	EC50		1.98 µM
CCCSc1nc(C(N)=S)cnc1CCC			H37Rv		MIC		>12.5 µg/mL
Clc1ccc(C(Cn2ccnc2)OCc2ccc(-c3ccccc3)cc2)c(Cl)c1			CIP103471		MIC		4 µg/mL
[N-]=[N+]=N[C@@H]1C[C@@H](CO)O[C@H]1n1cnc2c(N)ncnc21			H37Rv	BACTEC	MIC bound		>12.5 µg/mL
O=c1nc2c(ncn2Cc2ccccc2)c(C#Cc2ccccc2)n1Cc1ccccc1			H37Rv		EC50	VERO	<12.5 µg/mL
C=CC(C)(C)c1cc2cc3c(cc2oc1=O)OC(C(C)(C)OC(C)=O)C3		12.5 µg/mL	H37Rv	BACTEC	inhibition		-39%
N=c1cc2c(cn1-c1ccccc1)C(=O)c1ccccc1C2=O	Lux		H37Rv	luminescence	MIC		11.21 µM
CC(=O)Nn1cnc2ccccc2c1=O			H37Rv	BACTEC	MIC bound		>12.5 µg/mL
CCCCc1ncc(C(N)=S)nc1SCCC		12.5 µg/mL	H37Rv		inhibition		83%
Cc1ccc(C(Cn2ccnc2)OCc2cccc3ccccc23)cc1			CIP103471		MIC		0.5 µg/mL
C[C@H]1COc2c(N3CCN(C)CC3)c(F)cc3c(=O)c(C(=O)O)cn1c23			001-005 (DRUG-SUS)		MIC		0.5 µg/mL
CC(C)(C)OC(=O)NC1C2CN(c3cc4c(cc3F)c(=O)c(C(=O)O)c3n4CS3)CC21			H37Rv	agar	MIC		0.87 µM
O=C(N/N=C/c1c(O)cccc1O)c1cccnc1.[Cl][Fe][Cl]			H37Rv	broth dilution / resazurin	MIC		0.76 µg/mL
O=C(NCCCC1CCCCC1)c1cn2ccc(Cl)cc2n1			H37Rv	resazurin	MIC90		>200 µM
COc1ccc(C(=O)[C@@H]2C[C@H](C#N)[C@@H]3C=Cc4c(ccc5cccnc45)N23)cc1			H37Rv	reporter gene / fluorescence	EC90		>200 µM
Cc1ccc2oc(=O)n(-c3ccc([N+](=O)[O-])cc3)c(=O)c2c1			CNCTC MY331/88		MIC		4 µM
Cc1cc(=O)c2c(ccc3c(=O)cc(C)[nH]c32)[nH]1		12.5 µg/mL	H37Rv	BACTEC	inhibition		4%
CCCCSc1nc(C(N)=O)cnc1CC(C)C			H37Rv		MIC		>12.5 µg/mL
Clc1ccc(C(Cn2ccnc2)OC/C=C/c2ccccc2)c(Cl)c1			CIP103471		MIC		8 µg/mL
O=c1oc2c([N+](=O)[O-])cccc2cc1-c1cn2ccc(Br)cc2n1		6.25 µg/mL	H37Rv	BACTEC	inhibition		0%
CCCCn1c(C)c2c(=O)[nH]n(C)c(=O)c2c1C		12.5 µg/mL	H37Rv		inhibition		16%
CN(C)CCCN1c2ccccc2Sc2ccc(Cl)cc21	gfp		H37Rv-GFP	fluorescence	MIC		6 µg/mL
O=c1oc2ccccc2cc1-c1cn2cc(Br)ccc2n1			H37Rv	BACTEC	MIC		>6.25 µg/mL
N=c1cc2c(cn1-c1ccc(Cl)cc1)C(=O)c1ccccc1C2=O	Lux		H37Rv	luminescence	MIC		1.16 µM
CN(C)CCCNc1cccc2c1C(=O)c1cccc(NCCCN(C)C)c1C2=O			H37Rv	BACTEC	MIC bound		>12.5 µg/mL
COc1c2c(c(OC)c3ccccc13)CN(c1ccc(C)cc1Br)C(=N)C2	Lux		H37Rv	luminescence	MIC		10.84 µM
COc1cc2c(cc1OC)CN(c1cc3c(cc1F)c(=O)c(C(=O)O)c1n3CS1)CC2			H37Rv	agar	MIC		3.53 µM
NNC(=O)C(=O)N=Cc1ccc([N+](=O)[O-])o1			KM-R		MIC		3.1 µg/mL
O=C(O)c1c2n(c3cc(N4CCN(C(=O)c5ccco5)CC4)c([N+](=O)[O-])cc3c1=O)CS2			H37Rv	agar	MIC		1.71 µM
CCCCCCCCCCCCCCCCCC(=O)N1c2ccccc2Sc2ccccc21		12.5 µg/mL	H37Rv	BACTEC	inhibition		-2%
O=c1nc2c(ncn2Cc2ccccc2)c(-c2cccs2)n1Cc1ccccc1			H37Rv		EC50		>12.5 µg/mL
COC(=O)c1c(C(=O)OC)c2ccc3c4ncccc4ccc3n2c1C(=O)c1ccc(C)cc1			H37Rv	reporter gene / fluorescence	EC50		>200 µM
O=C1C2C3CCC(O3)C2C(=O)N1CSc1nc2ccccc2s1			H37Rv	BACTEC	MIC bound		>12.5 µg/mL
CSc1nc(C(N)=O)cnc1CC(C)C			H37Rv		MIC		>12.5 µg/mL
COc1ccc2oc(=O)n(-c3ccc(C)cc3)c(=O)c2c1			CNCTC MY331/88		MIC		125 µM
C#C[C@@]12O[C@]1(C=O)[C@@H]1[C@@H](O)C[C@H]3C(C)(C)CCC[C@]3(C)[C@H]1CC2=O			Resistant strains		MIC		12.5 µg/mL
Cc1ccc(Nc2cn(C3C=CC(O)C3)c(=O)n(C3C=CC(O)C3)c2=O)cc1			H37Rv	turbidity	MIC99		40 µg/mL
CN1CCN(c2cc3c(cc2F)c(=O)c(C(=O)O)c2n3CS2)CC1c1ccccc1			H37Rv	agar	MIC		7.36 µM
COc1cc2c(ccc3c4cc(OC)c(OC)cc4c[n+](C)c23)cc1O			H37Rv	BACTEC	MIC		>12.5 µg/mL
COc1cc2occ(-c3ccc(O)cc3)c(=O)c2c(OC)c1O		6.25 µg/mL	H37Rv	resazurin	inhibition		-3%
O=C(Nn1c(-c2ccccc2)ccc1-c1ccccc1)c1ccncc1			LORA	turbidity	EC50		>67.8 µg/mL
Cc1nc2ccc(Cl)cn2c1C(=O)NC1CCCCCCC1			H37Rv	resazurin	MIC90		>200 µM
N#Cc1ccc(-n2c(=O)oc3ccc(F)cc3c2=O)cc1			CNCTC MY331/88		MIC		16 µM
CC(C)Oc1cc2c[n+](C)c3c4cc5c(cc4ccc3c2cc1O)OCO5		12.5 µg/mL	H37Rv	BACTEC	inhibition		93%
COC(=O)/C1=C/c2c([nH]c3ccccc23)/C(C(=O)OC)=C\c2c1[nH]c1ccccc21			H37Rv	resazurin / absorbance	EC50		0.24 µM
CO[C@@]12[C@H](COC(C)=O)C3=C(C(=O)C(C)=C(N4CCCCC4)C3=O)N1C[C@@H]1N[C@@H]12			H37Rv		MIC	VERO	0.1 µg/mL
O=S(=O)(O)CCCN1c2ccccc2Sc2ccc(C(F)(F)F)cc21	gfp		H37Rv-GFP	fluorescence	MIC		25 µg/mL
Cc1ccn2cc(-c3cc4ccccc4oc3=O)nc2c1		6.25 µg/mL	H37Rv	BACTEC	inhibition		0%
Cc1ccc(-c2ccccc2)n1NC(=O)COc1ccc2ccccc2c1		100 µg/mL	H37Rv (ATCC 27294)	resazurin	inhibition		100%
COc1cc(Br)cc2cc(-c3cn4ccccc4n3)c(=O)oc12		6.25 µg/mL	H37Rv	BACTEC	inhibition		37%
COc1cc(=O)cc2n(c1=O)CCC2		12.5 µg/mL	H37Rv	BACTEC	inhibition		-38%
CC(C)(C)OC(=O)NC1C2CN(c3cc4c(cc3[N+](=O)[O-])c(=O)c(C(=O)O)c3n4CS3)CC21			H37Rv	agar	MIC		0.4 µM
COC(=O)c1c(C(=O)OC)c2ccc3c4ncccc4ccc3n2c1C(=O)c1ccccc1			H37Rv	reporter gene / fluorescence	EC90		>20 µM
CCCCCCCCC(=O)N(C)C1C2CN3CCC(O2)C13			H37Rv	BACTEC	MIC bound		>12.5 µg/mL
CCSN(SCC)C(=S)c1ncnc(NC2CC2)c1[N+](=O)[O-]					MBC		29.1 µg/mL
C[C@H](NC(=O)[C@H](CO)NC(=O)CN)C(=O)O			H37Rv	BACTEC	MIC bound		>12.8 µg/mL
COc1c2c(c(OC)c3ccccc13)CN(c1ccccc1)C(=N)C2	Lux		H37Rv	luminescence	MIC		21.49 µM
O=C(N/N=C/c1c(O)cccc1O)c1cccnc1.[Cl][Ni][Cl]			H37Rv	broth dilution / resazurin	MIC		0.66 µg/mL
O=S1(F)=NP(N2CC2)(N2CC2)=NP(N2CC2)(N2CC2)=N1		128 µg/mL	H37Rv	BACTEC	inhibition		58%
CCOC(=O)c1cc(C(=O)c2ccc(C)cc2)n2c1ccc1c3ncccc3ccc12			H37Rv	reporter gene / fluorescence	EC50		>200 µM
CCOc1ccc2c(c[n+](C)c3c4cc5c(cc4ccc23)OCO5)c1OC		12.5 µg/mL	H37Rv	BACTEC	inhibition		100%
CCSc1nc(C(N)=S)cnc1CC(C)C		12.5 µg/mL	H37Rv		inhibition		<90%
COc1cccc2cc(-c3cn4ccc(C)cc4n3)c(=O)oc12		6.25 µg/mL	H37Rv	BACTEC	inhibition		8%
CSc1nc(C(N)=O)c(N)s1			H37Rv	BACTEC	MIC bound		>12.5 µg/mL
NNC(=O)c1ccncc1			Pan-susceptible clinical isolate 6		MIC		0.06 µg/mL
N=c1cc2c(cn1-c1ccc([N+](=O)[O-])cc1)C(=O)c1ccccc1C2=O	Lux		H37Rv	luminescence	MIC		2.79 µM
Cc1ccc2c(=O)n(-c3cccc(Cl)c3)c(=O)oc2c1			CNCTC MY331/88		MIC		62 µM
CCCCn1c(C)c2c(=O)n(C)n(Cc3ccc(Cl)cc3)c(=O)c2c1C		12.5 µg/mL	H37Rv		inhibition		52%
CCOC(=O)c1cc(C(=O)c2ccc(Cl)cc2)n2c1ccc1c3ncccc3ccc12			H37Rv	reporter gene / fluorescence	EC50		>100 µM
Cc1c2c(OCC(O)CN3CCc4ccccc4C3)nn(C)c(=O)c2c(C)n1-c1ccccc1			H37Rv		EC50		>12.5 µg/mL
CCCCSc1nc(C(N)=O)cnc1CCCC		12.5 µg/mL	H37Rv		inhibition		79%
CSc1ccc2c(c1)N(CCCC1CCCCN1C)c1ccccc1S2	gfp		H37Rv-GFP	fluorescence	MIC		3 µg/mL
Cc1ccc(Nc2c[nH]c(=O)[nH]c2=O)cc1			H37Rv	turbidity	MIC99		10 µg/mL
O=C(O)c1c2n(c3cc(N4CCN(C(=O)C5COc6ccccc6O5)CC4)c([N+](=O)[O-])cc3c1=O)CS2			H37Rv	agar	MIC		5.97 µM
O=[N+]([O-])c1ccc(-c2ccc(C3=Nn4c(nnc4-c4ccc(Cl)cc4)SC3)o2)cc1		12.5 µg/mL	H37Rv	BACTEC	inhibition		8%
COc1cc2c[n+](C)c3c4cc(OC)c(OC(C)C)cc4ccc3c2cc1OC		12.5 µg/mL	H37Rv	BACTEC	inhibition		98%
NC(=N\N=C\c1ccc(Cl)cc1Cl)/C(N)=N/N=C/c1ccc(Cl)cc1Cl			H37Rv	BACTEC	MIC bound		>12.5 µg/mL
COc1cccc2cc(-c3cn4ccccc4n3)c(=O)oc12		6.25 µg/mL	H37Rv	BACTEC	inhibition		0%

A second listing of 8 rows from above:

SMILES,mutations,dose,strain,method,read-out,cell line,value
CCCCCCCCC(=O)N(C)C1C2CN3CCC(O2)C13,,,H37Rv,BACTEC,MIC bound,,>12.5 µg/mL
CCSc1nc(C(N)=S)cnc1CC(C)C,,12.5 µg/mL,H37Rv,,inhibition,,<90%
COc1cc2c(cc1O)c[n+](C)c1c3cc4c(cc3ccc21)OCO4,,12.5 µg/mL,H37Rv,BACTEC,inhibition,,87%
COc1ccc(C(=O)[C@@H]2C[C@H](C#N)[C@@H]3C=Cc4c(ccc5cccnc45)N23)cc1,,,H37Rv,reporter gene / fluorescence,EC90,,>200 µM
O=c1oc2ccccc2cc1-c1cn2cc(Br)ccc2n1,,,H37Rv,BACTEC,MIC,,>6.25 µg/mL
Cc1ccc2c(=O)n(-c3cccc(Cl)c3)c(=O)oc2c1,,,CNCTC MY331/88,,MIC,,62 µM
COC(=O)/C1=C/c2c([nH]c3ccccc23)/C(C(=O)OC)=C\c2c1[nH]c1ccccc21,,,H37Rv,resazurin / absorbance,EC50,,0.24 µM
CSc1nc(C(N)=O)cnc1CC(C)C,,,H37Rv,,MIC,,>12.5 µg/mL